{"source": "paper PMC9228641", "about": "(Journal of medicinal chemistry, 2021)", "key": {"[1]": {"test_system": "HCV replicon A156T variant", "test": "microbe, parasite or virus in culture", "conditions": "Hepatitis C virus, Huh-7, 96 h, read-out: EC50 against A156T variant"}, "[2]": {"test_system": "NS3/4A protease D168A variant", "conditions": "relative to the parent 18"}, "[3]": {"test_system": "HCV replicon A156T variant"}}, "note": "pEC50: −log10 of the molar value. Where two headings read alike, the source gives them in different places."}
{"compound": "COc1ccc2nc(C)c(O[C@@H]3C[C@H]4C(=O)N[C@]5(C(=O)NS(=O)(=O)C6(C)CC6)C[C@H]5C=CCCCCC[C@H](NC(=O)OC(C)(C)C(F)(F)F)C(=O)N4C3)nc2c1", "note": "(stereo in doubt) [Compound 12, 1,1,1-Trifluoro-2-methylpropan-2-yl ((2R,6S,13aS,14aR,16aS,Z)-2-((7-methoxy-3-methylquinoxalin-2-yl)oxy)-14a-(((1-methylcyclopropyl)sulfonyl)carbamoyl)-5,16-dioxo-1,2,3,5,6,7,8,9,10,11,13a,14,14a,15,16,16a-hexadecahydrocyclopropa[e]pyrrolo[1,2-a][1,4]diazacyclopentadecin-6-yl)carbamate]", "values": [{"measurement": "pEC50", "setting": "[1]", "value": "> 8.30"}]}
{"compound": "COc1ccc2nc(C)c(O[C@@H]3C[C@H]4C(=O)N[C@]5(C(=O)NS(=O)(=O)C6(C)CC6)C[C@H]5C=CCCCCC[C@H](NC(=O)O[C@@H](C)C(F)(F)F)C(=O)N4C3)nc2c1", "note": "(stereo in doubt) [Compound 13, (S)-1,1,1-Trifluoropropan-2-yl ((2R,6S,13aS,14aR,16aS,Z)-2-((7-methoxy-3-methylquinoxalin-2-yl)oxy)-14a-(((1-methylcyclopropyl)sulfonyl)carbamoyl)-5,16-dioxo1,2,3,5,6,7,8,9,10,11,13a,14,14a,15,16,16a-hexadecahydrocyclopropa[e]pyrrolo[1,2-a][1,4]diazacyclopentadecin-6-yl)carbamate]", "values": [{"measurement": "pEC50", "setting": "[1]", "value": "> 8.00"}]}
{"compound": "COc1ccc2nc(C)c(O[C@@H]3C[C@H]4C(=O)N[C@]5(C(=O)NS(=O)(=O)C6(C)CC6)C[C@H]5C=CCCCCC[C@H](NC(=O)OC5(C(F)(F)F)CCCC5)C(=O)N4C3)nc2c1", "note": "(stereo in doubt) [Compound 24, 1-(Trifluoromethyl)cyclopentyl ((2R,6S,13aS,14aR,16aS,Z)-2-((7-methoxy-3-methylquinoxalin-2-yl)oxy)-14a-(((1-methylcyclopropyl)sulfonyl)carbamoyl)-5,16-dioxo-1,2,3,5,6,7,8,9,10,11,13a,14,14a,15,16,16a-hexadecahydrocyclopropa[e]pyrrolo[1,2-a][1,4]diazacyclopentadecin-6-yl)carbamate]", "values": [{"measurement": "fold improvement in potency against the D168A variant, biochemical assay", "setting": "[2]", "value": 2, "unit": "fold"}, {"measurement": "fold improvement in antiviral activity against the A156T variant", "setting": "[3]; improvement, relative to the parent 18", "value": 8, "unit": "fold"}]}
{"compound": "COc1ccc2nc(O[C@@H]3C[C@H]4C(=O)N[C@]5(C(=O)NS(=O)(=O)C6(C)CC6)C[C@H]5C=CCCCCC[C@H](NC(=O)O[C@H](C)C(C)C)C(=O)N4C3)c(C(F)(F)F)nc2c1", "note": "(stereo in doubt) [Compound 31, (R)-3-Methylbutan-2-yl ((2R,6S,13aS,14aR,16aS,Z)-2-((6-methoxy-3-(trifluoromethyl)quinoxalin-2-yl)oxy)-14a-(((1-methylcyclopropyl)sulfonyl)carbamoyl)-5,16-dioxo-1,2,3,5,6,7,8,9,10,11,13a,14,14a,15,16,16a-hexadecahydrocyclopropa[e]pyrrolo[1,2-a][1,4]diazacyclopentadecin-6-yl)carbamate]", "values": [{"measurement": "fold less active against the A156T replicon", "setting": "[3]; less active, compared to 30", "value": 5, "unit": "fold"}]}
{"compound": "COc1ccc2nc(O[C@@H]3C[C@H]4C(=O)N[C@]5(C(=O)NS(=O)(=O)C6(C)CC6)C[C@H]5C=CCCCCC[C@H](NC(=O)OCC5(C)CC5(F)F)C(=O)N4C3)c(C(F)(F)F)nc2c1", "note": "(stereo in doubt) [Compound 41, (2,2-Difluoro-1-methylcyclopropyl)methyl ((2R,6S,13aS,14aR,16aS,Z)-2-((6-methoxy-3-(trifluoromethyl)quinoxalin-2-yl)oxy)-14a-(((1-methylcyclopropyl)sulfonyl)carbamoyl)-5,16-dioxo-1,2,3,5,6,7,8,9,10,11,13a,14,14a,15,16,16a-hexadecahydrocyclopropa[e]pyrrolo[1,2-a][1,4]diazacyclopentadecin-6-yl)carbamate]", "values": [{"measurement": "fold loss of potency against the A156T variant", "setting": "[3]; loss, relative to 36", "value": 3, "unit": "fold"}]}
{"compound": "COc1ccc2nc(O[C@@H]3C[C@H]4C(=O)N[C@]5(C(=O)NS(=O)(=O)C6(C)CC6)C[C@H]5C=CCCCCC[C@H](NC(=O)OC5CCC5)C(=O)N4C3)c(C(F)(F)F)nc2c1", "note": "(stereo in doubt) [Compound 44, Cyclobutyl ((2R,6S,13aS,14aR,16aS,Z)-2-((6-methoxy-3-(trifluoromethyl)quinoxalin-2-yl)oxy)-14a-(((1-methylcyclopropyl)sulfonyl)carbamoyl)-5,16-dioxo-1,2,3,5,6,7,8,9,10,11,13a,14,14a,15,16,16a-hexadecahydrocyclopropa[e]pyrrolo[1,2-a][1,4]diazacyclopentadecin-6-yl)carbamate]", "values": [{"measurement": "fold better potency against the A156T variant", "setting": "[3]; relative to 5", "value": 4, "unit": "fold"}]}
{"compound": "COc1ccc2nc(O[C@@H]3C[C@H]4C(=O)N[C@]5(C(=O)NS(=O)(=O)C6(C)CC6)C[C@H]5C=CCCCCC[C@H](NC(=O)OC5(C)CCC5)C(=O)N4C3)c(C(F)(F)F)nc2c1", "note": "(stereo in doubt) [Compound 45, 1-Methylcyclobutyl ((2R,6S,13aS,14aR,16aS,Z)-2-((6-methoxy-3-(trifluoromethyl)quinoxalin-2-yl)oxy)-14a-(((1-methylcyclopropyl)sulfonyl)carbamoyl)-5,16-dioxo-1,2,3,5,6,7,8,9,10,11,13a,14,14a,15,16,16a-hexadecahydrocyclopropa[e]pyrrolo[1,2-a][1,4]diazacyclopentadecin-6-yl)carbamate]", "values": [{"measurement": "fold better potency against the A156T variant", "setting": "[3]; relative to 5", "value": 2, "unit": "fold"}]}
{"compound": "COc1ccc2nc(O[C@@H]3C[C@H]4C(=O)N[C@]5(C(=O)NS(=O)(=O)C6(C)CC6)C[C@H]5C=CCCCCC[C@H](NC(=O)OC5(C(F)(F)F)CCCC5)C(=O)N4C3)c(C(F)(F)F)nc2c1", "note": "(stereo in doubt) [Compound 48, 1-(Trifluoromethyl)cyclopentyl ((2R,6S,13aS,14aR,16aS,Z)-2-((6-methoxy-3-(trifluoromethyl)quinoxalin-2-yl)oxy)-14a-(((1-methylcyclopropyl)sulfonyl)carbamoyl)-5,16-dioxo-1,2,3,5,6,7,8,9,10,11,13a,14,14a,15,16,16a-hexadecahydrocyclopropa[e]pyrrolo[1,2-a][1,4]diazacyclopentadecin-6-yl)carbamate]", "values": [{"measurement": "fold better potency against the A156T variant", "setting": "[3]; compared to 42", "value": 3, "unit": "fold"}]}
{"compound": "COc1ccc2nc(C)c(O[C@@H]3C[C@H]4C(=O)N[C@]5(C(=O)NS(=O)(=O)C6(C)CC6)C[C@H]5/C=C/CCCCC[C@H](NC(=O)OC5CCC5)C(=O)N4C3)nc2c1", "note": "[Compound 21]", "values": [{"measurement": "pEC50", "setting": "[1]", "value": "> 8.30"}]}
{"compound": "COc1ccc2nc(C)c(O[C@@H]3C[C@H]4C(=O)N[C@]5(C(=O)NS(=O)(=O)C6(C)CC6)C[C@H]5/C=C/CCCCC[C@H](NC(=O)OC5(C)CC5)C(=O)N4C3)nc2c1", "note": "[Compound 23]", "values": [{"measurement": "fold less active against the A156T variant", "setting": "[3]; less active, relative to 22", "value": 3, "unit": "fold"}]}
